A mixed list of measured activities; the numbers were collected in NIAID ChemDB.

Shared fields: toxicity to cultured cells; cell line: HEP-2; endpoint: CC50

Neighbouring rows are from separate reports. CCn is the concentration with n% toxicity to the cells.

smiles,result
CSc1nsc(-c2ccc(OC(C)(C)C)cc2)c1C#N,>50 µM
CSc1nsc(-c2ccc(OS(=O)(=O)c3ccc(C)cc3)cc2)c1C#N,25 µM
N#Cc1cc(CC(=O)c2ccccc2)c(=O)n2c1sc1ccccc12,200 µg/mL
CCCCCCC(O)C12C[C@@H]3[C@H](C)CC[C@H]3C3(C=O)CC1C=C(C(C)C)[C@@]23C(=O)O,1.5 µg/mL
CSc1nsc(-c2cccc3ccccc23)c1C#N,4 µM
CCOC(=O)c1cc(CC(=O)c2ccccc2)c(=O)n2c1oc1ccccc12,40 µg/mL
Nc1nccc2c1ncn2[C@@H]1C=C(CO)[C@@H](O)[C@H]1O,0.1 µg/mL
CC(C)CCC(O)C12C[C@@H]3[C@H](C)CC[C@H]3C3(C=O)CC1C=C(C(C)C)[C@@]23C(=O)O,2.5 µg/mL
CC(=O)c1cc(CC(=O)c2ccccc2)c(=O)n2c1sc1ccccc12,40 µg/mL
COc1ccc(-c2snc(SC)c2C#N)cc1,10 µM
Nc1ccn([C@H]2CC[C@@H](CO)O2)c(=O)n1,381.9 µg/mL
CSc1noc(-c2ccc(OCCOc3ccc(C)cc3)cc2)c1C#N,>25 µM
N#Cc1cc(C#N)c2[nH]c3ccccc3n2c1=O,50 µg/mL
CSc1nsc(-c2cc[n+](C)cc2)c1C#N,1000 µM
Cc1cc(=O)c2c(O)c(C)c(O[C@H]3O[C@H](CO)[C@@H](O)[C@H](O)[C@H]3O)c(C)c2o1,83.5 µg/mL
O=C(/C=C/c1ccc(O)c(O)c1)O[C@@H]1CC(O)(C(=O)O)C[C@@H](OC(=O)/C=C/c2ccc(O)c(O)c2)C1O,>400 µg/mL
CSc1noc(-c2ccc(OCCc3ccccc3)cc2)c1C#N,>20 µM
CC(C)C1=CC2CC3(C=O)[C@@H]4CC[C@@H](C)[C@H]4CC2(C(O)CC2CCCCC2)[C@]13C(=O)O,1.8 µg/mL
Nc1ncnc2c1ncn2[C@H]1[C@H](O)[C@H](F)[C@@H](CO)[C@@H]1O,>320 µM
NC(=O)CCN(CCC(N)=O)S(=O)(=O)c1cccc(Nc2nc(Nc3cccc(S(=O)(=O)N(CCC(N)=O)CCC(N)=O)c3)nc(Nc3ccc(-c4ccc(Nc5nc(Nc6cccc(S(=O)(=O)N(CCC(N)=O)CCC(N)=O)c6)nc(Nc6cccc(S(=O)(=O)N(CCC(N)=O)CCC(N)=O)c6)n5)cc4S(=O)(=O)O)c(S(=O)(=O)O)c3)n2)c1,375 µg/mL
O=C(/C=C/c1ccc(O)c(O)c1)O[C@H]1[C@H](O)C[C@](O)(C(=O)O)C[C@H]1OC(=O)/C=C/c1ccc(O)c(O)c1,>100 µg/mL

Repeating the final 2 entries:

smiles | result
NC(=O)CCN(CCC(N)=O)S(=O)(=O)c1cccc(Nc2nc(Nc3cccc(S(=O)(=O)N(CCC(N)=O)CCC(N)=O)c3)nc(Nc3ccc(-c4ccc(Nc5nc(Nc6cccc(S(=O)(=O)N(CCC(N)=O)CCC(N)=O)c6)nc(Nc6cccc(S(=O)(=O)N(CCC(N)=O)CCC(N)=O)c6)n5)cc4S(=O)(=O)O)c(S(=O)(=O)O)c3)n2)c1 | 375 µg/mL
O=C(/C=C/c1ccc(O)c(O)c1)O[C@H]1[C@H](O)C[C@](O)(C(=O)O)C[C@H]1OC(=O)/C=C/c1ccc(O)c(O)c1 | >100 µg/mL